Measured values from several laboratories, pooled; numbers as filed in NIAID ChemDB.

Common to all: growth or infection tests; species: Herpes simplex virus 1; read-out: EC50

Blank or dashed fields: not listed here. ECn is the concentration giving n% inhibition of infection, replication or growth. Rows are shuffled and stem from different studies.

compound,cells,strain or isolate,method,result
O=C(O)P(=O)(O)O,RK-13,MMUDR-resistant,plaque count,31 µM
C[C@@H](c1ccccc1)N(CC(=O)Nc1ccc(-c2csc(N)n2)cc1)C(=O)c1ccncc1,BHK-21/C13,615.9,plaque count,0.13 µM
CC(=O)OCCOCN1C(N)=CC(N)=NS1(=O)=O,E6SM,McIntyre,-,>400 µg/mL
CCc1cn([C@H]2C[C@H](O)[C@@H](COP(=O)(O)O)O2)c(=O)[nH]c1=O,PRK,CL 101 (TK-),cytopathic effect,>820 µg/mL
Cn1cc(C(=O)NCc2ccc(Cl)cc2)c(=O)c2cc(CN3CCOCC3)ccc21,HFF,HL-34,plaque count,2.7 µM
CC(=O)OCCOCN1C=CC(=O)NS1(=O)=O,E6SM,VMW1837 (TK-),-,>400 µg/mL
OC[C@H]1O[C@@H](c2cc(C(O)CBr)c(F)cc2F)C[C@@H]1O,E6SM,TK-deficient acyclovir-resistant,cytopathic effect,>3.2 µg/mL
[N-]=[N+]=NCc1cn([C@H]2C[C@H](O)[C@@H](CO)O2)c(=O)[nH]c1=O,PRK,B2006 (TK-),cytopathic effect,≥40 µg/mL
Nc1ncnc2c1ncn2C[C@H](O)CO,PRK,F,cytopathic effect,>400 µg/mL
CC(=O)OCCOCN1C=C(C#N)C(N)=NS1(=O)=O,E6SM,KOS,-,>400 µg/mL
O=C(NCc1ccc(Cl)cc1)c1cn2c3c(cc(CN4CCOCC4)cc3c1=O)OC(c1cccnc1)C2,HFF,11359 (ACV-resistant),plaque count,6.5 µM
Nc1nc2c(ncn2COCCO)c(=O)[nH]1,PRK,McIntyre,cytopathic effect,0.1 µg/mL
O=Cc1cn([C@H]2C[C@H](O)[C@@H](CO)O2)c(=O)[nH]c1=O,PRK,F,cytopathic effect,2 µg/mL
CC(=O)OCCOCN1C(C)=CC(N)=[N+](c2ccccc2)S1(=O)=O,E6SM,KOS,-,>400 µg/mL
O=C(CI)NCc1cn([C@H]2C[C@H](O)[C@@H](CO)O2)c(=O)[nH]c1=O,PRK,KOS,cytopathic effect,>200 µg/mL
OC[C@H]1O[C@@H](c2cc(C(O)C(I)I)c(F)cc2F)C[C@@H]1O,E6SM,VMW 1837,cytopathic effect,>80 µg/mL
NC1=CC(N)=NS(=O)(=O)N1COCCO,E6SM,McIntyre,-,>400 µg/mL
CCc1cn([C@H]2C[C@H](O)[C@@H](CO)O2)c(=O)[nH]c1=O,PRK,F,cytopathic effect,1.6 µg/mL
O=c1[nH]c(=O)n([C@H]2C[C@H](O)[C@@H](CO)O2)cc1I,PRK,VDX348,cytopathic effect,0.1 µg/mL